Measurements reported in article PMC9138599, “Clade-Specific Alterations within the HIV-1 Capsid Protein with Implications for Nuclear Translocation” (Biomolecules, 2022).
Like-named read-outs stand apart in the source and are kept apart here.

Biological target: HIV-1 CA hexamer from clade B (NL4-3) (Human immunodeficiency virus type 1 group M subtype B, UniProt P12493, A146C/E177C/M317A/W316A)
Test: SPR binding to immobilized HIV-1 CA hexamer, clade B
Conditions: clade B (NL4.3) hexamer

PF-74
Kd (Langmuir isotherm equilibrium fit, 25 °C, n = 3, read-out: KD Equilibrium): 47 nM | Kd (global fit, n = 3, read-out: KD Kinetic/Global): 47.9 nM
